Measurements reported in PubChem BioAssay AID504761 (Drosophila RNAi Screening Center, 2011).

Aim: 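Genome-wide fly cell screen for genes dengue virus requires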 (primary screen)
Cells: D.Mel-2 cells from Drosophila
Reagent: long dsRNA against Drosophila genes
Conditions: infection with dengue virus type 2; dose and infection time not stated
Read-out: 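Cells stained for dengue envelope protein and imaged; percent of infected cells per well on duplicate plates, ranked by infection, with stained nuclei counted for cell number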
Direction: infection score: higher = more virus-infected cells
Rule for the call: 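Low infection ranks in the two replicates (chance level up to 0.065) followed by a retest with a 1.5-fold or larger significant decrease, p below 0.05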
Calls: active = confirmed: knock-down lowers infection; inactive = not picked or not confirmed
The screen tested about 22,000 reagents; below is a random part of those with a known target gene and a result. Of all reagents, 116 (0.52%) got an active call. 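Calls depend on retest data that are not deposited; infection was ranked per plate without normalising between plates; the unit of the infection score is not given.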 Unmarked entries are inactive. A plus sign joins genes that one reagent is predicted to hit. Further read-outs or replicates are left out here. Reagent sequences are not shown. Not given: the amount of reagent, the time to read-out.

infection score, replicate 1, by gene knocked down and reagent
Sdb: SID104186064 21; SID104186065 10; SID104186947 8.01
Mkp + CG34140: SID104188377 4.23
stretch (retired record): SID104194304 5.25; SID104194333 3.72; SID104194334 5.67; SID104194335 5.96; SID104202395 1.51; SID104207168 11.2; SID104207772 4.69; SID104214123 5.45
CG12817: SID104194347 10.4
Mic26-27: SID104195705 11.4
bif: SID104198693 1; SID104200105 3.09; SID104206926 13.7
CG31848: SID104181101 8.56
tld: SID104196876 2.84
tefu: SID104195852 13.8
CG8944: SID104199920 9.87; SID104201121 4.36; SID104202869 30.7
CG12851: SID104183923 6.87
CG13293: SID104189759 2.08
CG17777: SID104197929 1.14
kipf: SID104195238 10.1; SID104202230 3.04; SID104208234 45.2
CG11839: SID104194190 0.25
Lcp65APsi: SID104188587 2.45; SID104190134 0.54
CG6470: SID104199786 1.7; SID104206234 3.06
Pur-alpha: SID104196958 4.28
CG13049: SID104189722 1.45; SID104203435 2.68
Cpr49Ad: SID104187076 19.1
ORY: SID104202242 2.06
eff: SID104196732 19.4
CG1523: SID104194825 2.17; SID104204859 13.5
Sap47: SID104196642 25.9; SID104205706 5.49
Lsd-2: SID104199935 10.2; SID104207445 21.6
CG5021: SID104190261 5.29
SmB: SID104183229 28.1; SID104204803 12
CG10211: SID104181819 12.5; SID104207219 1.34
CG6927: SID104198199 8.03
CG13488: SID104183925 1.64
CG5391: SID104195582 2.92
Gfat2: SID104194390 3.18; SID104205492 5.97
fit: SID104195072 0.81
mRpL9: SID104195470 10.6; SID104206072 20.9

Reformatted: entries from further up
{"gene knocked down": "CG5021", "PubChem SID": "SID104190261", "infection score, replicate 1": 5.29}
{"gene knocked down": "SmB", "PubChem SID": "SID104183229", "infection score, replicate 1": 28.1}
{"gene knocked down": "SmB", "PubChem SID": "SID104204803", "infection score, replicate 1": 12}
{"gene knocked down": "CG10211", "PubChem SID": "SID104181819", "infection score, replicate 1": 12.5}
